Results deposited as PubChem BioAssay AID624099 (ICCB-Longwood, 2012).
Purpose: 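Host factors E2 relies on to silence an HPV18 LCR reporter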 (primary screen). Cells: human C33A cervical carcinoma cells (HPV-negative) stably expressing BPV1 E2 and an HPV18 LCR luciferase reporter. Knock-down reagent: siRNA pool against human genes, 40 nM. Time to read-out: 72 h. Detection: 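Per-well luciferase luminescence, z-scored on each plate against the plate mean and SD with control wells left out, then averaged across three replicate plates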. Reading the numbers: mean z-score and z-score: higher = stronger reporter signal, weaker E2 silencing. Active means: 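Mean z ≥ 2 together with z ≥ 2 in two or more of the three replicates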.
The deposit covers about 21,000 reagents; this is an unselected part. Of all reagents, 497 (2.4%) were called active. 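Higher z means weaker E2 silencing; only reporter increases were scored, and knock-downs that hurt cell survival may mask genuine repressor factors.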 A number with no mark means an inactive call. Reagent sequences are not shown.

target gene | mean z-score | z-score, replicate A | z-score, replicate B | z-score, replicate C
SERPINA13P | 0.63 | 0.66 | 0.52 | 0.71
DUSP16 | 0.3 | 0.41 | 0.2 | 0.31
TNIK | -0.94 | -0.91 | -0.81 | -1.1
CTAGE10P | -1.24 | -1.49 | -1.08 | -1.14
NUP210 | 0.27 | 0.32 | 0.3 | 0.2
CYP24A1 | -0.21 | -0.11 | -0.26 | -0.25
STX6 | 0.03 | 0.17 | 0.09 | -0.17
ADIRF | -0.26 | -0.18 | -0.18 | -0.42
RAD51C | -0.2 | -0.02 | -0.17 | -0.4
AKR1B10 | -0.95 | -1.05 | -0.54 | -1.26
ZC3HAV1L | -0.37 | -0.33 | -0.38 | -0.39
OR6C74 | -0.14 | -0.46 | 0.6 | -0.55
POLE3 | -0.34 | -0.27 | -0.39 | -0.36
MUC4 | 0.38 | 0.7 | 0.13 | 0.3
MED24 | -0.26 | 0.02 | -0.26 | -0.53
SLC23A2 | 0.84 | 0.97 | 0.75 | 0.8
GTF2H3 | -0.63 | -0.72 | -0.55 | -0.63
AP5M1 | -0.04 | -0.09 | -0.01 | -0.03
ORC1 | -0.17 | -0.1 | -0.06 | -0.35
CLCNKA | 0.6 | 0.5 | 0.66 | 0.64
THEMIS | -0.17 | -0.23 | -0.3 | 0.01
ADAMTS3 | 0.37 | 0.54 | 0.41 | 0.15
ACMSD | 0.95 | 1 | 0.98 | 0.87
GALNT7 | 0.26 | 0.68 | 0.21 | -0.11
PPIAP16 | 0.36 | 0.13 | 0.35 | 0.59

12 entries from above, reduced to “z-score, replicate B”.
RAD51C: -0.17
AKR1B10: -0.54
ZC3HAV1L: -0.38
OR6C74: 0.6
POLE3: -0.39
MUC4: 0.13
MED24: -0.26
SLC23A2: 0.75
GTF2H3: -0.55
AP5M1: -0.01
ORC1: -0.06
CLCNKA: 0.66

Additional reagents follow:
target gene | mean z-score | z-score, replicate A | z-score, replicate B | z-score, replicate C
GLYAT | 1.01 | 1.07 | 1 | 0.95
PFDN1 | 1.65 | 1.9 | 1.74 | 1.31
EXOSC7 | 1.42 | 2.04 | 1.1 | 1.1
KLC1 | 0.15 | 0.18 | -0.06 | 0.32
ZNF347 | -0.19 | -0.21 | -0.28 | -0.06
HOXB5 | 1.96 | 2.13 | 1.87 | 1.87
RPL23A | -2.31 | -2.24 | -2.47 | -2.23
FAM87B | -0.45 | -0.58 | -0.55 | -0.22
COIL | 0.07 | -0.18 | 0.08 | 0.31
AMOT | -0.76 | -0.63 | -1.03 | -0.62
MRS2 | 0.27 | 0.29 | 0.69 | -0.18
SEZ6L2 | 0.26 | 0.16 | 0.19 | 0.44
ABHD17AP4 | 0.09 | 0.4 | 0.18 | -0.31
C5orf46 | 0.98 | 1.08 | 1.32 | 0.54
PRR23E | 0.1 | 0.06 | -0.17 | 0.39
ABLIM2 | 0.47 | 0.68 | 0.51 | 0.21
LOC401937 (retired record) | -0.25 | -0.48 | -0.04 | -0.23
MYCL | -0.44 | -0.44 | -0.58 | -0.31
SEC11B | -0.46 | -0.67 | -0.18 | -0.54
STX3 | -0.2 | 0.14 | -0.3 | -0.44
STAG2 | 0.78 | 0.73 | 0.66 | 0.94
STRADA | -0.81 | -0.71 | -0.86 | -0.86
DAPP1 | 0.66 | 0.7 | 1.04 | 0.25
UTRN | 0.47 | 0.39 | 0.4 | 0.63
CPXCR1 | 1.03 | 1.1 | 0.97 | 1.03
CENPO | -0.11 | 0.12 | -0.26 | -0.18
PRED4 (retired record) | 0.46 | 0.39 | 0.23 | 0.75
LRRFIP2 | 1.3 | 1.37 | 1.31 | 1.22
C1orf87 | 0.36 | 0.43 | 0.35 | 0.3
LINC02120 | 1.45 | 1.37 | 1.44 | 1.54
GRIK1 | 0.65 | 0.68 | 0.69 | 0.58
BZW1P2 | -0.72 | -0.76 | -0.64 | -0.75
AQP5 | 0.96 | 0.82 | 1.15 | 0.92
HEATR6 | 0.17 | 0.22 | 0.15 | 0.14
CCNYL1 | 0.49 | 0.39 | 0.67 | 0.41
LINC00517 | 1.93 | 2.2 | 1.8 | 1.78
USP27X-DT | -0.58 | 0.04 | -0.81 | -0.99
RAMP3 | -0.37 | -0.23 | -0.41 | -0.46
PRRG3 | -1.58 | -1.37 | -1.66 | -1.7
CDC5L | 0.44 | 0.39 | 0.73 | 0.21
KDM4B | -0.78 | -0.62 | -0.96 | -0.74
IRF9 | 0.15 | 0.24 | 0.1 | 0.11
LOC441540 (retired record) | -1 | -1.24 | -0.92 | -0.84
LTK | -0.35 | -0.54 | -0.15 | -0.36
HCG27 | -0.47 | -0.25 | -0.97 | -0.19
ARL2BP | -0.57 | -0.43 | -0.83 | -0.44
SMARCA2 | 1.08 | 1.34 | 0.86 | 1.05
KRT34 | 1.6 | 1.96 | 1.44 | 1.39
